Experimental data taken from article PMC7687367.

Columns and labels:
[1] = molecular target: RBD (residues 319-541) of Bat-CoV RaTG13 (Bat CoV RaTG13); assay: BLI
[2] = molecular target: RBD (residues 315-537) of Guangdong pangolin CoV (Guangdong pangolin CoV); assay: BLI

## COVA1-16 IgG1 antibody (from UniProt P01857)
[1]
  Kd: 14 nM
[2]
  Kd: 11 nM
